Compound potency records, mixed from different reports. Data source: NIAID ChemDB in PubChem.

Common to all: growth or infection tests; organism: Mycobacterium bovis BCG

Blank or dashed fields: not listed here. Lines come from different laboratories, so protocols vary. A number after MIC or MFC names an inhibition level or a share of isolates.

SMILES | measure | strain | conditions | method | value
COc1ccc2[nH]c3ccc(CC(=O)O)cc3c2c1 | MIC99 | - | - | resazurin / visual reading / absorbance | 250 µg/mL
Cc1cc(N)c2ccccc2[n+]1CCCCCCCCCC[n+]1c(C)cc(N)c2ccccc21 | MIC | Pasteur | - | - | 3.125 µM
Clc1ccc(Cn2cc(/C=N/Nc3nncs3)c3ccccc32)cc1 | MIC100 | 1173P2 | 24 h | broth dilution | 3.91 µg/mL
Cc1ccc(-c2ccc3[nH]c4cc(C(C)C(=O)O)ccc4c3c2)cc1 | MIC99 | - | - | resazurin / visual reading / absorbance | 31.3 µg/mL
N#Cc1cccc(Cn2cc(/C=N/Nc3nncs3)c3ccccc32)c1 | MIC100 | 1173P2 | 24 h | broth dilution | 125 µg/mL
COC(=O)N[C@H]1[C@@H](C)O[C@@H](O[C@H]2C/C=C(\C)C3C=CC4C([C@@H](C)C[C@H](O[C@@H]5C[C@H](C)[C@H](O)[C@@](O)(C6C[C@@H](O)[C@H](O[C@H]7CC[C@@H](OC)[C@H](C)O7)[C@H](C)O6)C5)[C@@H]4O)[C@]3(C)C(O)=C3C(=O)OC4(CC(C=C(CO)[C@@H]4C)/C=C/2C)C3=O)C[C@]1(C)[N+](=O)[O-] | MIC | Pasteur | - | - | 25 µM
O=C(O)Cc1ccc2[nH]c3ccccc3c2c1 | MIC99 | - | - | resazurin / visual reading / absorbance | 500 µg/mL
CN(C)[C@@H]1C(=O)C(C(N)=O)=C(O)[C@@]2(O)C(=O)C3=C(O)c4c(O)ccc(Cl)c4[C@@H](O)[C@H]3C[C@@H]12 | MIC | Pasteur | - | - | 3.125 µM
COC(=O)C#CC(=O)OC | MIC | 1173P2 | 24 h | resazurin | 3.87 µg/mL
COC(=O)Cc1ccc2c(c1)[nH]c1ccc(Cl)cc12 | MIC99 | - | - | resazurin / visual reading / absorbance | 15.6 µg/mL
C#CC(C)OC(C)=O | MIC | 1173P2 | 24 h | resazurin | 125 µg/mL
NNC(=S)N/N=C/c1cn(Cc2ccccc2)c2ccccc12 | MIC100 | 1173P2 | 24 h | broth dilution | >500 µg/mL
CO[C@H]1/C=C/O[C@@]2(C)Oc3c(C)c(O)c4c(O)c(c(CN5CCN(C)CC5)c(O)c4c3C2=O)NC(=O)/C(C)=C\C=C\[C@H](C)[C@H](O)[C@@H](C)[C@@H](O)[C@@H](C)[C@H](OC(C)=O)[C@@H]1C | MIC | Pasteur | - | - | 50 µM
CC(C(=O)O)c1ccc2c(c1)[nH]c1ccc(C3CCCCC3)cc12 | MIC99 | - | - | resazurin / visual reading / absorbance | 250 µg/mL
NNC(=S)N/N=C/c1cn(Cc2ccc(Cl)cc2)c2ccccc12 | MIC100 | 1173P2 | 48 h | broth dilution | >500 µg/mL
O=C1c2cccnc2-c2nccc3c2c1nc1cc(Br)ccc13 | MIC | Pasteur | - | - | 0.781 µM
C#CCCCCCCCC | MIC | 1173P2 | 48 h | resazurin | 125 µg/mL
NNC(=S)N/N=C/c1cn(CC2CCCCC2)c2ccccc12 | MIC100 | 1173P2 | 48 h | broth dilution | >500 µg/mL
C#CCCOC(C)=O | MIC | 1173P2 | 24 h | resazurin | 125 µg/mL
NNC(=S)N/N=C/c1cn(Cc2cccc(F)c2)c2ccccc12 | MIC100 | 1173P2 | 24 h | broth dilution | >500 µg/mL
OC(c1cc(-c2ccccc2)nc2c1ccc1ccccc12)C1CCCCN1 | MIC | Pasteur | - | - | 12.5 µM
Cn1cc(/C=N/Nc2nncs2)c2ccccc21 | MIC100 | 1173P2 | 24 h | broth dilution | 15.63 µg/mL
O=C(O)Cc1ccc2[nH]c3ccc(Br)cc3c2c1 | MIC99 | - | - | resazurin / visual reading / absorbance | 250 µg/mL

For reference, 2 entries again:

{"SMILES": "NNC(=S)N/N=C/c1cn(Cc2ccc(Cl)cc2)c2ccccc12", "measure": "MIC100", "strain": "1173P2", "conditions": "48 h", "method": "broth dilution", "value": ">500 µg/mL"}
{"SMILES": "O=C(O)Cc1ccc2[nH]c3ccc(Br)cc3c2c1", "measure": "MIC99", "method": "resazurin / visual reading / absorbance", "value": "250 µg/mL"}